For orientation: IC50 means the concentration that gives 50% inhibition.

This assay has as its system Trypanosoma brucei growth inhibition. The experiment in a line: trypanosome proliferation inhibitors (AID 1159557).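 Further: parasites exposed to compound for 48 h before the resazurin readout.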

Regarding `CC(C)(C)c1ccc(NC2(C(N)=O)CCN(Cc3ccccc3)CC2)cc1`, the IC50 was 13 µM.

The record behind these values is PubChem BioAssay AID1159557 (GlaxoSmithKline (GSK), 2015).
